PubChem BioAssay AID624099, ICCB-Longwood, 2012
Assay: 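Human genes that papillomavirus E2 requires to repress the HPV18 LCR promoter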 (primary screen). System: human C33A cervical carcinoma cells (HPV-negative) stably expressing BPV1 E2 and an HPV18 LCR luciferase reporter. Reagent: siRNA pool against human genes, 40 nM. Duration: 72 h. Detection: 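HPV18 LCR reporter light per well, converted to plate-wise z-scores that exclude control wells, and averaged over triplicate plates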. Direction: mean z-score and z-score: higher = stronger reporter signal, weaker E2 silencing. Call rule: 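Mean z ≥ 2 together with z ≥ 2 in two or more of the three replicates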.
This is one part, drawn at random, of about 21,000 reagents. 497 of them (2.4%) were called active. 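Higher z means weaker E2 silencing; only reporter increases were scored, and knock-downs that hurt cell survival may mask genuine repressor factors.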 A number with no mark means an inactive call. Reagents against one gene are numbered here.

What did the screen give for EIF6 (eukaryotic translation initiation factor 6) #1?
mean z-score: 0.94; z-score, replicate A: 0.87; z-score, replicate B: 0.68; z-score, replicate C: 1.25

How did the screen score EIF6 (eukaryotic translation initiation factor 6) #2?
mean z-score: -0.25; z-score, replicate A: -0.27; z-score, replicate B: -0.14; z-score, replicate C: -0.34

What is on record for ACKR5 (atypical chemokine receptor 5)?
mean z-score: 0.2; z-score, replicate A: 0.24; z-score, replicate B: -0.09; z-score, replicate C: 0.44

With PCED1A (PC-esterase domain containing 1A), what does the deposit list?
mean z-score: -1.06; z-score, replicate A: -1.32; z-score, replicate B: -1.35; z-score, replicate C: -0.51

Which result is listed for CAPS (calcyphosine)?
mean z-score: -0.41; z-score, replicate A: -0.8; z-score, replicate B: -0.23; z-score, replicate C: -0.22

For GAS8-AS1 (GAS8 antisense RNA 1), how do the results read?
mean z-score: -0.52; z-score, replicate A: -0.21; z-score, replicate B: -0.51; z-score, replicate C: -0.84

With ELF2 (E74 like ETS transcription factor 2), what was measured?
mean z-score: 0.05; z-score, replicate A: 0.01; z-score, replicate B: -0.11; z-score, replicate C: 0.26

How did the screen score IRF9 (interferon regulatory factor 9)?
mean z-score: 0.15; z-score, replicate A: 0.24; z-score, replicate B: 0.1; z-score, replicate C: 0.11

For LOC388298 (retired record), what does the deposit list?
mean z-score: -0.34; z-score, replicate A: -0.29; z-score, replicate B: -0.32; z-score, replicate C: -0.4

What is on record for PCSK5 (proprotein convertase subtilisin/kexin type 5)?
mean z-score: -0.9; z-score, replicate A: -0.82; z-score, replicate B: -1.22; z-score, replicate C: -0.67

With DNPH1 (2'-deoxynucleoside 5'-phosphate N-hydrolase 1), what was measured?
mean z-score: -0.98; z-score, replicate A: -0.84; z-score, replicate B: -1.12; z-score, replicate C: -0.97

For RHBDL3 (rhomboid like 3), what was measured?
mean z-score: -0.04; z-score, replicate A: -0.28; z-score, replicate B: 0.23; z-score, replicate C: -0.05

Which result is listed for NAA15 (N-alpha-acetyltransferase 15, NatA auxiliary subunit)?
mean z-score: -0.01; z-score, replicate A: 0.25; z-score, replicate B: 0.05; z-score, replicate C: -0.34

For ZDHHC3 (zDHHC palmitoyltransferase 3) #1, what was measured?
mean z-score: -0.86; z-score, replicate A: -0.48; z-score, replicate B: -1.04; z-score, replicate C: -1.06

With ZDHHC3 (zDHHC palmitoyltransferase 3) #2, what does the deposit list?
mean z-score: 1.21; z-score, replicate A: 1.02; z-score, replicate B: 1.2; z-score, replicate C: 1.4

For PSG5 (pregnancy specific beta-1-glycoprotein 5), what does the deposit list?
mean z-score: 2.06 (active); z-score, replicate A: 2.07; z-score, replicate B: 1.97; z-score, replicate C: 2.15

Entries above with an active call:
PSG5 (pregnancy specific beta-1-glycoprotein 5) → mean z-score: 2.06 (active); z-score, replicate A: 2.07; z-score, replicate B: 1.97; z-score, replicate C: 2.15

The results go on.
Which result is listed for COL4A5 (collagen type IV alpha 5 chain)?
mean z-score: -0.96; z-score, replicate A: -0.74; z-score, replicate B: -1.09; z-score, replicate C: -1.03

For PHLPP1 (PH domain and leucine rich repeat protein phosphatase 1), how do the results read?
mean z-score: 0.69; z-score, replicate A: 0.8; z-score, replicate B: 0.49; z-score, replicate C: 0.77

How did the screen score CATSPERQ (catsper channel auxiliary subunit theta)?
mean z-score: -0.86; z-score, replicate A: -0.89; z-score, replicate B: -0.83; z-score, replicate C: -0.87

What is on record for HM13 (histocompatibility minor 13)?
mean z-score: 1.91; z-score, replicate A: 1.71; z-score, replicate B: 1.66; z-score, replicate C: 2.35

Which result is listed for LOC389628 (retired record)?
mean z-score: 1.51; z-score, replicate A: 1.73; z-score, replicate B: 1.04; z-score, replicate C: 1.77

With LOC400861 (retired record), how do the results read?
mean z-score: -0.05; z-score, replicate A: -0.1; z-score, replicate B: -0.02; z-score, replicate C: -0.02

What is on record for NASP (nuclear autoantigenic sperm protein)?
mean z-score: -0.91; z-score, replicate A: -0.98; z-score, replicate B: -0.52; z-score, replicate C: -1.23

With MARCKSL1 (MARCKS like 1), what does the deposit list?
mean z-score: 0.06; z-score, replicate A: 0.05; z-score, replicate B: -0.01; z-score, replicate C: 0.14

For PPP6R2 (protein phosphatase 6 regulatory subunit 2), what does the deposit list?
mean z-score: 0.94; z-score, replicate A: 1.01; z-score, replicate B: 0.97; z-score, replicate C: 0.83

What did the screen give for ZNF283 (zinc finger protein 283)?
mean z-score: 0.24; z-score, replicate A: 0.41; z-score, replicate B: 0.08; z-score, replicate C: 0.22

Which result is listed for PSMB5 (proteasome 20S subunit beta 5)?
mean z-score: -0.6; z-score, replicate A: -0.8; z-score, replicate B: -0.4; z-score, replicate C: -0.61
